# Laboratory results as given in publication PMC8940892, “Structures of pseudorabies virus capsids” (2022).
# Read-outs that look alike come from different tables or passages of the source.
# Experiments:
# Test in all cases: cryo-EM structure
# [1] = molecular target: portal protein pUL6 of pseudorabies virus (pseudorabies virus (PRV), Bartha strain)
# [2] = molecular target: triplex protein Tri2 (VP23) of pseudorabies virus (pseudorabies virus (PRV), Bartha strain)
# [3] = molecular target: major capsid protein (MCP, VP5) of pseudorabies virus (pseudorabies virus (PRV), Bartha strain)
# [4] = molecular target: major capsid protein (MCP, VP5) of pseudorabies virus (pseudorabies virus (PRV), Bartha strain); remark: listed apart in the source
substance,measurement,setting,value
portal protein pUL6 of pseudorabies virus (natural protein),stoichiometry N,[1],12
triplex protein Tri2 (VP23) of pseudorabies virus (natural protein),stoichiometry N,[2],2
"major capsid protein (MCP, VP5) of pseudorabies virus (natural protein)",stoichiometry N,[3],5
same,stoichiometry N,[4],6
